PubChem BioAssay AID504761 – Drosophila RNAi Screening Center | 2011
Screen: 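Fly genes whose silencing reduces dengue virus type 2 infection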 (primary screen). System: D.Mel-2 cells from Drosophila. Knock-down reagent: long dsRNA against Drosophila genes. Conditions: infection with dengue virus type 2; dose and infection time not stated. Detection: 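Per well on two replicate plates, imaging gave the percent of cells positive for viral envelope protein, ranked by infection, and a nuclear count of cells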. Scale: infection score: higher = more virus-infected cells; cell count: higher = more cells in the well. Active means: 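Very low infection ranking in both replicate wells (chance probability at most 0.065), then a retest showing infection dropped 1.5-fold or more at p below 0.05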. Calls: active = confirmed: knock-down lowers infection; inactive = not picked or not confirmed.
The deposit covers about 22,000 reagents; this is an unselected part of those that have a named target and a result. In the full data, 116 (0.52%) are marked active. 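Calls depend on retest data that are not deposited; infection was ranked per plate without normalising between plates; the unit of the infection score is not given.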 Raw values are not corrected between plates. The numbers tell different reagents against one gene apart. A plus sign joins genes that one reagent is predicted to hit. The record does not give: the amount of reagent, the time to read-out.

Target gene | dsRNA no. | infection score, replicate 1 | infection score, replicate 2 | cell count, replicate 1 | cell count, replicate 2 | Outcome
UGP + PGRP-LF | 1 | 1.03 | 1.79 | 5914 | 6213 | inactive
CG9109 | 1 | 3.58 | 6.38 | 5727 | 6674 | inactive
CG9109 | 2 | 1.72 | 1.48 | 6380 | 6020 | inactive
Ccn | 1 | 4.52 | 5.1 | 5576 | 5786 | inactive
Ccn | 2 | 0.35 | 2.11 | 5764 | 5731 | inactive
Ccn | 3 | 14.9 | 13.1 | 5590 | 6155 | inactive
Ccn | 4 | 10.2 | 3.84 | 6462 | 6481 | inactive
Crk (Crk oncogene) | 1 | 5.16 | 5.37 | 6565 | 6556 | inactive
Tango11 (Transport and Golgi organization 11) | 1 | 1.87 | 1.34 | 6148 | 5744 | inactive
Tango11 (Transport and Golgi organization 11) | 2 | – | 0.45 | – | 6189 | inactive
Mur29B (Mucin related 29B) | 1 | 4.05 | 7.17 | 6415 | 6210 | inactive
Mur29B (Mucin related 29B) | 2 | 9.48 | 11.5 | 5275 | 2610 | inactive
CG33181 | 1 | 2.24 | 3.71 | 6163 | 6437 | inactive
CG33181 | 2 | 2.97 | 3.88 | 6370 | 6594 | inactive
CG33181 | 3 | 20.1 | 11.1 | 5813 | 3504 | inactive
Xport-A + Xport-B | 1 | 2.39 | 2.93 | 6478 | 6073 | inactive
Cdk5 (Cyclin-dependent kinase 5) | 1 | 27.9 | 12.5 | 3320 | 6590 | inactive
Rab9D + Rab9Fa + Rab9E | 1 | 15.3 | 11.9 | 3993 | 5391 | inactive
CG31998 | 1 | 4.87 | 6.18 | 5627 | 5471 | inactive
CG31998 | 2 | 3.7 | – | 1380 | 296 | inactive
e(y)2b (enhancer of yellow 2b) | 1 | 12.5 | 6.4 | 6472 | 6480 | inactive
CG10063 | 1 | 3.26 | 4.06 | 6137 | 5395 | inactive
CG10063 | 2 | 12.1 | 2.91 | 3820 | 1824 | inactive
AIMP1 (aaRS-interacting multifunctional protein 1) | 1 | 15.4 | – | 6084 | 587 | inactive
AIMP1 (aaRS-interacting multifunctional protein 1) | 2 | 6.58 | 4.64 | 6122 | 6180 | inactive
Rpp21 (Ribonuclease P/MRP subunit p21) | 1 | 3.01 | – | 5940 | 460 | inactive
Rpp21 (Ribonuclease P/MRP subunit p21) | 2 | 10.5 | 30.4 | 5334 | 5667 | inactive
Pex23 (Peroxin 23) | 1 | 8.99 | 5.91 | 3493 | 6325 | inactive
Pex23 (Peroxin 23) | 2 | 16.8 | 15.5 | 5136 | 5346 | inactive
Pex23 (Peroxin 23) | 3 | 5.24 | 21.5 | 802 | 5894 | inactive
CG30430 | 1 | 0.21 | 0.66 | 6648 | 6701 | inactive
SkpA (SKP1-related A) | 1 | 11.1 | 11.4 | 3844 | 3479 | inactive
SkpA (SKP1-related A) | 2 | 3.63 | 3.66 | 5930 | 6096 | inactive
Osi18 (Osiris 18) | 1 | 3.33 | 0.96 | 6305 | 6476 | inactive
CG32271 | 1 | 1.9 | 3.82 | 6304 | 6071 | inactive
CG32271 | 2 | 7.06 | 11.7 | 6414 | 6528 | inactive
thr (three rows) | 1 | 7.38 | 3.36 | 5259 | 5528 | inactive
Spc25 | 1 | 2.61 | 6 | 6137 | 6629 | inactive
AP-1mu (Adaptor Protein complex 1, mu subunit) | 1 | 3.84 | 5.26 | 6716 | 6638 | inactive
AP-1mu (Adaptor Protein complex 1, mu subunit) | 2 | 0.79 | 2 | 6355 | 6049 | inactive
CG34124 | 1 | 0.9 | 1.97 | 6088 | 5688 | inactive
DIP-beta (Dpr-interacting protein beta) | 1 | 13.7 | 10.9 | 5562 | 5755 | inactive
DIP-beta (Dpr-interacting protein beta) | 2 | 9.45 | 1.14 | 5611 | 6203 | inactive
DIP-beta (Dpr-interacting protein beta) | 3 | 6.54 | 8.4 | 6455 | 4550 | inactive
AANATL6 (Arylalkylamine N-acetyltransferase-like 6) | 1 | 2.76 | 2.84 | 6460 | 6364 | inactive
CG34169 | 1 | 4.57 | 11.3 | 6571 | 6331 | inactive
T3dh (Type III alcohol dehydrogenase) | 1 | 13.3 | 7.48 | 5444 | 4344 | inactive
CG31467 | 1 | 24 | 15.2 | 3998 | 5408 | inactive
CG31467 | 2 | 11 | 16.8 | 5349 | 5848 | inactive
CG14391 | 1 | 4.42 | 5.06 | 6238 | 6325 | inactive
CG14391 | 2 | 17.6 | 12 | 4317 | 2306 | inactive
Polr3F (RNA polymerase III subunit F) | 1 | 1.13 | 5.19 | 6004 | 6663 | inactive
Max | 1 | 2.11 | 12.3 | 6667 | 6562 | inactive
hui (hase und igel) | 1 | 10.7 | 9.38 | 6461 | 6333 | inactive
hui (hase und igel) | 2 | 6.98 | 0.47 | 1905 | 424 | inactive
UBL3 (Ubiquitin like 3) | 1 | 1.28 | 12.5 | 5874 | 6344 | inactive
yuri (yuri gagarin) | 1 | 1.92 | 5.9 | 5845 | 5678 | inactive
yuri (yuri gagarin) | 2 | 1.43 | 0.96 | 6160 | 6954 | inactive
yuri (yuri gagarin) | 3 | 12.1 | 11 | 6493 | 5772 | inactive
yuri (yuri gagarin) | 4 | 7.16 | 7.51 | 2750 | 3848 | inactive
